{"source": "paper PMC13232947", "about": "“Structural basis for sarbecovirus Rc-o319 spike adaptation to Rhinolophus cornutus Bat ACE2 and constraints on switching to human ACE2” (2026)", "key": {"[1]": {"target": "dimeric His-tagged Rhinolophus cornutus bat ACE2 (bACE2_(R.cor)), Rhinolophus cornutus"}, "[2]": {"target": "Fc-tagged Rhinolophus cornutus ACE2 (bACE2R.cor-WT-Fc), AA 1-731 (Rhinolophus cornutus)"}, "[3]": {"target": "dimeric Fc-tagged bACE2_(R.cor) (Rhinolophus cornutus)"}}, "data": [{"substance": "Rc-o319-RBD-Fc (wild type)", "values": [{"measurement": "Kd", "setting": "[1]", "value": 241, "unit": "nM"}]}, {"substance": "monomeric BANAL-20-236 RBD", "values": [{"measurement": "Kd", "setting": "[2]", "value": 980, "unit": "nM"}, {"measurement": "koff", "setting": "[2]", "value": 0.0113, "unit": "s⁻¹"}, {"measurement": "kon", "setting": "[2]", "value": 11500, "unit": "M⁻¹ s⁻¹"}]}, {"substance": "Monomeric BANAL-20-236-RBD", "values": [{"measurement": "Kd", "setting": "[3]", "value": 981, "unit": "nM"}]}]}
